Reference: US20160088853A1, “Ultraviolet Disinfection of Produce, Liquids and Surfaces” (DREXEL UNIVERSITY, priority 2013, published 2016)

Method: In this example, fluorescein dye was used to detect the presence of free radicals, since interactions of oxidizing free radicals with fluorescein quench the fluorescence signal intensity. A fluorescein dye solution (4 μg/L) containing 0.4% (w/v) fructose and a fluorescein dye solution (4 μg/L) without fructose (control) were exposed to UV radiation at wavelength of 254 nm.
A batch-UV processing unit (Spectronics Spectrolinker XL-1500 UV Crosslinker, Westbury, N.Y.) was used for Examples 5-10. The apparatus consisted of 5 UV lamps (254 nm, 15 W, Spectronics Corporation, Westbury, N.Y.) that generated a UV intensity of approximately 20 mW/cm^2 at the surface of exposure mounted within a shielded box (46.4×15.9×31.8 cm). Fluorescence intensity measurement noise was minimized by allowing the lamps to warm up for at least 15 minutes prior to taking measurements.
The test fluorescein solution with approximately 1 μM fluorescein was prepared in deionized water (pH 6.3) or 100 mM buffer at pH 6. […] Specifically, treatments were carried out by adding a 10.0 ml solution into an uncovered glass petri dish and exposing it to UV radiation for various amounts of time (0-12 minutes) in the UV processing unit. The samples in the petri dish were stirred to achieve uniform exposure to UV light. Ambient room temperature (20-22° C.) was used for the treatments. To measure the fluorescence intensity of the solution, at each time interval, 100 μl of the sample was pipetted from the petri dish into a well of a 96-well plate optimized for fluorescence measurement. Fluorescence was measured in a Gemini XPS fluorescence micro-plate reader (Molecular Devices, Sunnyvale, Calif.) with excitation and emission wavelengths of 485 nm and 510 nm, respectively. All the fluorescence values were normalized using Eq. (1):
where I0=fluorescence intensity at time t=0 minutes and It=fluorescence intensity after ‘t’ minutes of UV exposure.

Compound: O=C1O[C@H]([C@@H](O)CO)C(O)=C1O [ascorbic acid, reference compound]
- rate of loss of fluorescence (420 mg/L ascorbic acid in 0.4% (w/v) fructose, UV 254 nm, FIG. 4): significantly reduced
- rate of fluorescence decay (25 and 50 μM ascorbic acid in 20 mM fructose, phosphate buffer pH 6, concentration dependent, FIG. 12): significantly reduced

Compound: O=C(CO)[C@@H](O)[C@H](O)[C@H](O)CO [fructose]
- fraction of fructose in a form that exhibited photosensitivity to UV light: 0.8%
- fluorescence intensity of fluorescein dye during UV exposure (0.4% (w/v) fructose, fluorescein 4 μg/L, UV 254 nm, FIG. 2): rapidly decreased
- change in fluorescence intensity in post-UV storage phase (0.4% fructose, after 4 minutes of UV exposure, absence of UV, FIG. 3): no significant changes
- effect on fluorescence intensity of fluorescein in absence of UV light (mere addition of fructose, no UV): did not show any effect

Compound: OC[C@H]1O[C@@](CO)(O[C@H]2O[C@H](CO)[C@@H](O)[C@H](O)[C@H]2O)[C@@H](O)[C@@H]1O [sucrose, reference compound]
- effect on fluorescence intensity of fluorescein (263 mM sucrose or 500 mM glucose, 12 minutes of UV exposure, FIG. 10A): no effect
